{
  "sequences": {"note": "Protein sequences, listed by entry. Tags and fused reporters are not part of them. Residues count along the entry.", "UniProt Q47764, 1-182": "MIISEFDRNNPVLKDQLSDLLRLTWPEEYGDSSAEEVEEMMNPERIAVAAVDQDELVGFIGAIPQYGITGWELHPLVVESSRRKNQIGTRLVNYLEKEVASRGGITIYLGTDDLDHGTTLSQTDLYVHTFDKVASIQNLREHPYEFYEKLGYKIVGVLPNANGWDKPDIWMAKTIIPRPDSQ", "UniProt Q9R381, whole entry": "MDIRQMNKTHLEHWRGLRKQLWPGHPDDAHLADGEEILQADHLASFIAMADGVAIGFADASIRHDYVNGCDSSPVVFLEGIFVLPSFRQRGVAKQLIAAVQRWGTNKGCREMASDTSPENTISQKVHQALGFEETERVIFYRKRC"},
  "source": "patent US7626005B2",
  "about": "“Inhibitors of aminoglycoside 6′-N-acetyltransferases, compositions and uses thereof” (priority 2005, dated 2009)",
  "key": {"[1]": {"molecular_target": "AAC(6′)-Ii (Enterococcus faecium, UniProt Q47764)", "experiment": "AAC6′-Ii inhibition assay (DTDP-coupled, varying AcCoA)", "assay_type": "biochemical"}, "[2]": {"molecular_target": "AAC(6′)-Iy (Salmonella enteritidis, UniProt Q9R381)", "experiment": "Inhibition assay of AAC(6′)-Iy", "assay_type": "biochemical, Salmonella enterica", "details": "read-out: AAC(6′)-Iy [Ki; (μM)]; Table 2"}},
  "note": "Like-named read-outs stand apart in the source and are kept apart here.",
  "data": [
    {"smiles": "CC(C)(COP(=O)(O)OP(=O)(O)OC[C@H]1O[C@@H](n2cnc3c(N)ncnc32)[C@H](O)[C@@H]1OP(=O)(O)O)[C@@H](O)C(=O)NCCC(=O)NCCSCC(=O)NC[C@H]1O[C@H](O[C@@H]2[C@@H](O)[C@H](O[C@H]3O[C@H](CO)[C@@H](O)[C@H](N)[C@H]3O)[C@@H](N)C[C@H]2N)[C@H](O)[C@@H](O)[C@@H]1O", "values": [
      {"measurement": "Ki", "setting": "[1]; Table 1, inhibition of AAC(6′)-Ii, varying AcCoA", "value": 0.111, "unit": "µM"},
      {"measurement": "Vm", "setting": "[1]; Table 1, maximal velocity from the fit of the inhibition assay", "value": "0.17 ± 0.04", "unit": "µM/s"},
      {"measurement": "Ki", "setting": "[1]; read-out: AAC(6′)-Ii [Ki, (μM)], Table 2", "value": 0.111, "unit": "µM"},
      {"measurement": "enhanced inhibition of AAC(6′)-Ii as compared to lysine-CoA conjugates (3a and 3b)", "setting": "[1]; relative to 3a and 3b", "value": 500, "unit": "fold"},
      {"measurement": "type of inhibition (in words)", "setting": "[1]; versus acetylCoA", "value": "competitive inhibition versus acetylCoA"},
      {"measurement": "Ki", "setting": "[2]", "value": 2.3, "unit": "µM"}
    ]}
  ]
}
